Compound potency records, mixed from different reports. Data source: NIAID ChemDB in PubChem.

Shared fields: growth or infection tests; organism: Vaccinia virus

ECn: concentration that inhibits the pathogen or its effect by n%. Blank or dashed fields: not listed here. Conditions beyond the fields shown may differ between rows. a–b is a range or a potency band.

SMILES,strain or isolate,endpoint,cell line,result
Nc1nc(N)c2ncn(CCOCP(=O)(O)O)c2n1,-,MIC,-,20 µg/mL
Cc1cn([C@H]2C[C@H](O)[C@@H](CO)S2)c(=O)[nH]c1=O,-,EC50,E6SM,0.004 µM
Nc1ccn([C@@H]2C[C@H](CO)[C@@H](O)[C@H]2O)c(=O)n1,-,EC50,PRK,15 µg/mL
NC(=O)c1ncn([C@@H]2O[C@H](CO)[C@@H](O)[C@H]2O)c1F,-,EC50,PRK,100 µg/mL
CCc1cn([C@H]2C[C@H](O)[C@@H](CO)O2)c(=O)[nH]c1=O,-,EC50,E6SM,7.5 µM
CC(C)[Si]1(C(C)C)OC[C@H]2O[C@@H](n3cnc4cc(Cl)c(Cl)cc43)[C@H](O)[C@H]2O[Si](C(C)C)(C(C)C)O1,-,EC50,E6SM,>10 µg/mL
Nc1nccc2c1ncn2[C@@H]1O[C@H](CO)[C@@H](O)[C@H]1O,-,EC50,PRK,7 µg/mL
NC(=O)c1ncn([C@@H]2O[C@H](CO)[C@@H](O)[C@H]2O)n1,-,EC50,PRK,4–20 µg/mL
NC(=O)c1ccnc([C@@H]2O[C@H](CO)[C@@H](O)[C@H]2O)c1,-,EC50,PRK,>400 µg/mL
Nc1nccc2c1ncn2[C@@H]1C=C(CO)[C@@H](O)[C@H]1O,-,EC50,VERO,0.03–0.3 µg/mL
CCCCCCCCCCCCCCCCOCCCOP(=O)(O)CO[C@H](CO)Cn1ccc(N)nc1=O,Copenhagen,EC50,HFF,0.8 µM
O=c1[nH]c(=O)n([C@H]2C[C@H](O)[C@@H](CO)S2)cc1C1CCCC1,-,EC50,E6SM,760 µM
Nc1ccn(C[C@@H](CO)OCP(=O)(O)O)c(=O)n1,-,EC50,Primary rabbit kidney cells,4 µg/mL
Nc1ccn(C[C@@H](CO)OCP(=O)(O)O)c(=O)n1,NYC,EC50,HFF,10.1 µM
Nc1ncnc2c1ncn2CCOCP(=O)(O)O,-,MIC,-,>100 µg/mL
O=c1ccn([C@H]2C[C@H](O)[C@@H](CO)S2)c(=O)[nH]1,-,EC50,E6SM,1.6 µM
Cn1cc(NC(=O)c2cc(NC(=O)CCCCC(=O)Nc3cc(C(=O)Nc4cc(C(=O)NCCC(N)=[NH2+])n(C)c4)n(C)c3)cn2C)cc1C(=O)NCCC(N)=[NH2+],-,EC50,VERO,4.5 µg/mL
C[C@H]1C[C@@H](n2cnc3c(N)ncnc32)[C@H](O)[C@@H]1O,-,EC50,E6SM,2 µg/mL
CCCCCCCCCCCCCCCCCCOCCOP1(=O)CO[C@@H](Cn2ccc(N)nc2=O)CO1,Elstree,EC50,HFF,0.5 µM
Cc1c(CC(=O)O)ccc(O)c1O,-,EC50,E6SM,40 µg/mL
C=CSC[C@H]1O[C@@H](n2cnc3c(N)ncnc32)[C@H](O)[C@@H]1O,-,EC50,VERO,30 µM
OCCOC(CO)n1cnc2cc(Cl)c(Cl)cc21,-,EC50,E6SM,>200 µg/mL
O=c1[nH]c(=O)n([C@H]2C[C@H](O)[C@@H](CO)O2)cc1C1CCCCC1,-,EC50,E6SM,>1200 µM
O=C(O)c1cc(O)c(O)c(O)c1,-,EC50,E6SM,2 µg/mL
Cc1cccc2c1OP(=O)(OCCOCn1cnc3c(=O)[nH]c(N)nc31)OC2,-,EC50,VERO 76,>99 µg/mL
Cc1cn([C@H]2C[C@H](N=[N+]=[N-])[C@@H](CO)O2)c(=O)[nH]c1=O,-,EC50,VERO,>374 µM
O=[N+]([O-])c1cc(Cl)c(Cl)cc1[N+](=O)[O-],-,EC50,E6SM,>1 µg/mL
Nc1ncnc2c1ncn2C[C@@H](O)[C@H](O)C(=O)O,-,EC50,PRK,70 µg/mL
O=c1[nH]c(=O)n([C@H]2C[C@H](O)[C@@H](CO)S2)cc1C1CC1,-,EC50,E6SM,1.3 µM
O=c1[nH]c(=O)n([C@H]2C[C@H](O)[C@@H](CO)O2)cc1CO,-,EC50,PRK,4 µg/mL
C[C@@H]1CC[C@H]2[C@@H](C)C(=O)O[C@@H]3OC4(C)CC[C@@H]1[C@]32OO4,-,EC50,E6SM,240 µg/mL
Nc1ncc2ncn(CCOCP(=O)(O)O)c2n1,-,EC50,Primary rabbit kidney cells,>200 µg/mL
OCCOC(CCO)n1cnc2cc(Cl)c(Cl)cc21,-,EC50,E6SM,>100 µg/mL
Nc1nccc2c1ncn2[C@@H]1C=C[C@@H](O)[C@H]1O,-,EC50,PRK,0.7 µg/mL
Nc1ncnc2c1ncn2[C@@H]1C=C(CO)[C@@H](O)[C@H]1O,-,MIC,-,0.02 µg/mL
CC1OP(=O)(OC[C@H]2O[C@@H](n3cc(/C=C/Br)c(=O)[nH]c3=O)C[C@@H]2O)Oc2cccc(Cl)c21,-,EC50,VERO 76,>99 µg/mL
Nc1ncnc2c1c(Br)cn2[C@@H]1O[C@H](CO)[C@@H](O)[C@H]1O,-,EC50,PRK,0.02 µg/mL
Nc1ncnc2c1ncn2C[C@H](O)CO,-,EC50,PRK,>70 µg/mL
Nc1nccc2c1ncn2[C@@H]1C=C(CO)[C@@H](O)[C@H]1O,-,EC50,PRK,0.07 µg/mL
Nc1ccn([C@@H]2CS[C@H](CO)O2)c(=O)n1,-,EC50,HFF,>436 µM
O=C(O)Cc1cc(O)ccc1O,-,EC50,E6SM,7 µg/mL
O=c1[nH]cnc2c1ncn2[C@H]1CC[C@@H](CO)O1,-,EC50,VERO,>423 µM
Nc1ncnc2c1ncn2[C@@H]1OC(C#CI)[C@@H](O)[C@H]1O,-,EC50,E6SM,0.08 µM
Nc1ncnc2c1ccn2[C@@H]1O[C@H](CO)[C@@H](O)[C@H]1O,-,EC50,PRK,0.07 µg/mL
O=C(O)Cc1ccc(O)c(O)c1,-,EC50,E6SM,7 µg/mL
O[C@@H]1[C@@H](OCc2ccccc2)[C@@H](COCc2ccccc2)O[C@H]1n1cnc2cc(Cl)c(Cl)cc21,-,EC50,E6SM,>10 µg/mL
O=c1ccn([C@H]2C[C@H](O)[C@@H](CO)O2)c(=O)[nH]1,-,EC50,E6SM,>2000 µM

Repeating the first 4 entries:

SMILES	strain or isolate	endpoint	cell line	result
Nc1nc(N)c2ncn(CCOCP(=O)(O)O)c2n1	-	MIC	-	20 µg/mL
Cc1cn([C@H]2C[C@H](O)[C@@H](CO)S2)c(=O)[nH]c1=O	-	EC50	E6SM	0.004 µM
Nc1ccn([C@@H]2C[C@H](CO)[C@@H](O)[C@H]2O)c(=O)n1	-	EC50	PRK	15 µg/mL
NC(=O)c1ncn([C@@H]2O[C@H](CO)[C@@H](O)[C@H]2O)c1F	-	EC50	PRK	100 µg/mL